Assay results taken from patent publication US6514997B2, “Antipicornaviral compounds and compositions, their pharmaceutical uses, and materials for their synthesis” (Agouron Pharmaceuticals, Inc., priority 1999, dated 2003).

Columns and labels:
[1] = system: strains of human rhinovirus (HRV); assay: Antirhinoviral H1-HeLa cell culture assay (XTT cell protection, EC50), other HRV strains; format: cell-based, human rhinovirus in H1-HeLa cells
Procedure: (§1) Antirhinoviral H1-HeLa Cell Culture Assay:
In this cell protection assay, the ability of compounds to protect cells against HRV infection was measured by the XTT dye reduction method, which is described in Weislow et al., J. Natl. Cancer Inst. (1989), vol. 81, 577-586. H1-HeLa cells were infected with HRV-14 at a multiplicity of infection (m.o.i.) of 0.13 (virus particles/cell) or mock-infected with medium only. Infected or mock-infected cells were resuspended at 8×10^5 cells per mL, and incubated with appropriate concentrations of the compounds to be tested. Two days later, XTT/PMS was added to test plates and the amount of formazan produced was quantified spectrophotometrically at 450/650 nm. The EC50 value was calculated as the concentration of compound that increased the percentage of formazan production in compound-treated, virus-infected cells to 50% of that produced by compound-free, mock-infected cells. The 50% cytotoxic dose (CC50) was calculated as the concentration of compound that decreased the percentage of formazan produced in compound-treated, mock-infected cells to 50% of that produced by compound-free, mock-infected cells. The therapeutic index (TI) was calculated by dividing the CC50 value by the EC50 value.
(§2) All strains of human rhinovirus (HRV) for use in this assay were purchased from American Type Culture Collection (ATCC), except for HRV serotype-14 (produced from the infectious cDNA clone constructed by Dr. Robert Rueckert, Institute for Molecular Virology, University of Wisconsin, Madison, Wis.). HRV stocks were propagated and viral assays were performed in H1-HeLa cells (ATCC). Cells were grown in minimal essential medium with 10% fetal bovine serum, available from Life Technologies (Gaithersburg, Md.).

HRV-14 = assay: Antirhinoviral H1-HeLa cell culture assay (XTT cell protection, EC50), HRV-14; format: cell-based, human rhinovirus (HRV) serotype-14 in H1-HeLa cells
Procedure: as §1
In this cell protection assay, the ability of compounds to protect cells against HRV infection was measured by the XTT dye reduction method, which is described in Weislow et al., J. Natl. Cancer Inst. […] H1-HeLa cells were infected with HRV-14 at a multiplicity of infection (m.o.i.) of 0.13 (virus particles/cell) or mock-infected with medium only. Infected or mock-infected cells were resuspended at 8×10^5 cells per mL, and incubated with appropriate concentrations of the compounds to be tested. Two days later, XTT/PMS was added to test plates and the amount of formazan produced was quantified spectrophotometrically at 450/650 nm. […] The therapeutic index (TI) was calculated by dividing the CC50 value by the EC50 value.
as §2

SMILES | TI ([1]; HRV-1A) | TI ([1]; HRV-2) | TI ([1]; HRV-3) | TI ([1]; HRV-9) | TI ([1]; HRV-10) | TI ([1]; HRV-16) | TI ([1]; HRV-25) | TI ([1]; HRV-39) | TI (HRV-14) | TI ([1]; HRV-87) | TI ([1]; HRV-11) | TI ([1]; HRV-13) | TI ([1]; HRV-19) | TI ([1]; HRV-23) | TI ([1]; HRV-78) | TI ([1]; HRV-Hanks)
Cc1cc(C(=O)Nc2cccn(C(Cc3ccc(F)c(F)c3)C(=O)N[C@H](/C=C/C(=O)OCC(C)(C)C)C[C@@H]3CCNC3=O)c2=O)no1 (relative stereo) [Compound 47, trans-(2′S,3″″″S,4S)-4-[3′-(3″,4″-Difluorophenyl)-2′-(3′″-{[1″″-(5′″″-methylisoxazol-3′″″-yl)methanoyl]amino}-2″″-oxo-2″″H-pyridin-1″″-yl)propanoylamino]-5-(2″″″-oxopyrrolidin-3″″″-yl)pent-2-enoic Acid 2,2-Dimethylpropyl Ester] | >67 | >75 | >555 | >82 | >87 | >204 | >51 | >59 | >250 | – | – | – | – | – | – | –
CCOC(=O)/C=C/[C@H](C[C@@H]1CCNC1=O)NC(=O)[C@H](Cc1ccc(F)cc1)n1cccc(NC(=O)c2cc(C)on2)c1=O [Compound 25, trans-(2′S,3′″″S,4S)-4-(3′-(4″-Fluorophenyl)-2′-{3′″-[(5″″-methylisoxazole-3″″-carbonyl)amino]-2′-oxo-2′″H-pyridin-1′″-yl}propionylamino)-5-(2′″″-oxopyrrolidin-3′″″-yl)pent-2-enoic Acid Ethyl Ester] | >667 | >2500 | >2500 | >1000 | >2500 | >2000 | >454 | >1111 | >5000 | >1250 | – | – | – | – | – | –
CC[C@@H](C(=O)N[C@H](/C=C/C(=O)OC1CCCC1)C[C@@H]1CCNC1=O)n1cccc(NC(=O)c2cc(Cl)on2)c1=O [Compound 29, trans-(2′S,3″″S,4S)-4-(2′-{3″-[(5′″-Chloroisoxazole-3′″-carbonyl)amino]-2″-oxo-2″H-pyridin-1″-yl}butyrylamino)-5-(2″″-oxopyrroldin-3″″-yl)pent-2-enoic Acid Cyclopentyl Ester] | >217 | – | – | – | >217 | – | – | – | >126 | – | – | – | – | – | – | –
CC[C@@H](C(=O)N[C@H](/C=C/C(=O)OC(C)(C)C)C[C@@H]1CCNC1=O)n1cccc(NC(=O)c2cc(C)on2)c1=O [Compound 34, trans-(2′S,3″″S,4S)-4-(2′-{3″-[(5′″-Methylisoxazole-3′″-carbonyl)amino]-2″-oxo-2″H-pyridin-1″-yl}butyrylamino)-5-(2″″-oxopyrrolidin-3″″-yl)pent-2-enoic Acid tert-Butyl Ester] | – | >64 | >163 | >16 | – | >18 | >10 | >22 | >81 | >303 | – | – | – | – | – | –
CCOC(=O)/C=C/[C@H](C[C@@H]1CCNC1=O)NC(=O)[C@@H]1CCc2ccc(NC(=O)c3cc(C)on3)c(=O)n21 [Compound 37, trans-(3′S,3′″S,4S)-4-({6′-[(5″-Methylisoxazole-3″-carbonyl)amino]-5′-oxo-1′,2′,3′,5′-tetrahydroindolizine-3′-carbonyl}amino)-5-(2′″-oxopyrrolidin-3′″-yl)-pent-2-enoic Acid Ethyl Ester] | >93 | >270 | >232 | >82 | >244 | >138 | >61 | >625 | >62 | >172 | – | – | – | – | – | –
CCOC(=O)/C=C/[C@H](C[C@@H]1CCNC1=O)NC(=O)[C@@H]1CCc2c(Cl)cc(NC(=O)c3cc(C)on3)c(=O)n21 [Compound 39, trans-(3′S,3′″S,4S)-4-({8′-Chloro-6′-[(5″-methylisoxazole-3″-carbonyl)amino]-5′-oxo-1′,2′,3′,5′-tetrahydroindolizine-3′-carbonyl}amino)-5-(2′″-oxopyrrolidin-3′″-yl)-pent-2-enoic Acid Ethyl Ester] | >238 | >625 | >256 | >208 | >113 | >175 | >93 | >208 | >250 | >588 | – | – | – | – | – | –
C#CC[C@@H](C(=O)N[C@H](/C=C/C(=O)OC1CCCC1)C[C@@H]1CCNC1=O)n1cccc(NC(=O)c2cc(C)on2)c1=O [Compound 40, trans-(2′S,3′″″S,4S)-4-[2′-(3″-{[1′″-(5″″-Methylisoxazol-3″″-yl)methanoyl]amino}-2′″-oxo-2′″H-pyridin-1′″-yl)pent-4″-ynoylamino]-5-(2′″″-oxopyrrolidin-3′″″-yl)pent-2-enoic Acid Cyclopentyl Ester] | – | >192 | >178 | >46 | – | >56 | >20 | >61 | >370 | >120 | >1666 | >67 | >166 | >181 | >81 | >86
C#CC[C@@H](C(=O)N[C@H](/C=C(\C)C(=O)OCC)C[C@@H]1CCNC1=O)n1cccc(NC(=O)c2cc(C)on2)c1=O [Compound 44, trans-(2′S,3′″″S,4S)-2-Methyl-4-[2′-(3″-{[1′″-(5″″-methylisoxazol-3″″-yl)methanoyl]amino}-2′″-oxo-2′″H-pyridin-1′″-yl)pent-4″-ynoylamino]-5-(2′″″-oxopyrrolidin-3′″″-yl)pent-2-enoic Acid Ethyl Ester] | – | >8 | – | – | >17 | >9 | >8 | – | >6 | – | – | – | – | – | – | –
Cc1cc(C(=O)Nc2cccn([C@@H](Cc3ccc(F)c(F)c3)C(=O)N[C@H](/C=C/C(=O)OC(C)(C)C)C[C@@H]3CCNC3=O)c2=O)no1 [Compound 46] | >54 | >68 | >222 | >66 | >74 | >62 | >53 | >44 | >1666 | – | >3333 | >128 | >500 | >909 | >400 | >2000
Cc1cc(C(=O)Nc2cccn([C@@H](Cc3ccc(F)c(F)c3)C(=O)N[C@H](/C=C/C(=O)OC3CCCC3)C[C@@H]3CCNC3=O)c2=O)no1 [Compound 49, trans-(2′S,3″″″S,4S)-4-[3′-(3″,4″-Difluorophenyl)-2′-(3′″-{[1″″-(5′″″-methylisoxazol-3′″″-yl)methanoyl]amino}-2″″-oxo-2″″H-pyridin-1″″-yl)propanoylamino]-5-(2″″″-oxopyrrolidin-3″″″-yl)pent-2-enoic Acid Cyclopentyl Ester] | >76 | >120 | >243 | >105 | >131 | >312 | >26 | >68 | >2500 | – | – | – | – | – | – | –
C#CC[C@@H](C(=O)N[C@H](/C=C/C(=O)OC(C)C)C[C@@H]1CCNC1=O)n1cccc(NC(=O)c2cc(C)on2)c1=O [Compound 50, trans-(2′S,3′″″S,4S)-4-[2′-(3″- {[1′″-(5″″-Methylisoxazol-3″″-yl)methanoyl]amino}-2′″-oxo-2′″H-pyridin-1′″-yl)pent-4″-ynoylamino]-5-(2′″″-oxopyrrolidin-3′″″-yl)pent-2-enoic Acid Isopropyl Ester] | >50 | >95 | >85 | >81 | >13 | >54 | >26 | – | >147 | – | – | – | – | – | – | –
